Measured values from several laboratories, pooled; numbers as filed in NIAID ChemDB.

Shared fields: target-level tests; organism: HIV-1; target: Integrase; read-out: IC50

Two numbers with a dash give a range or band. Conditions beyond the fields shown may differ between rows. An empty or dashed field is not shown. ICn: concentration for n% inhibition.

| structure | strain or isolate | mutations | read by | setting | value |
|---|---|---|---|---|---|
| Nc1c(C(=O)Nc2ccc(NC(=O)c3ccc4c(c3N)C(=O)c3ccccc3C4=O)c3c2C(=O)c2ccccc2C3=O)ccc2c1C(=O)c1ccccc1C2=O |  |  | 3′ processing |  | >250 µM |
| Cc1nc2c(-c3ccc(Cl)cc3)cccc2c(-c2ccc3c(c2)OCCO3)c1C(OC(C)(C)C)C(=O)O |  |  | strand transfer / fluorescence |  | 0.08 µM |
| O=C1Sc2ccc(Cl)cc2C(=O)N2CS(=O)CC12 | RF |  | 3′ processing |  | 237.5 µM |
| c1nc(SSc2ncnc3nc[nH]c23)c2[nH]cnc2n1 |  |  | 3′ processing |  | >250 µM |
| O=C(O)C(=O)/C=C(\O)c1c[nH]c(=O)n(Cc2ccccc2)c1=O |  |  | strand transfer |  | 0.5 µM |
| O=[N+]([O-])c1cc(S(=O)(=O)c2ccc(S)c([N+](=O)[O-])c2)ccc1S |  |  | strand transfer |  | 2.5 µM |
| CN(C)[C@@H]1C(=O)C(C(N)=O)=C(O)[C@@]2(O)C(=O)C3=C(O)c4c(O)cccc4[C@@](C)(O)[C@H]3[C@H](O)[C@@H]12 |  |  | 3′ processing | Mg2+ | >200 µM |
| O=C(CCCN(C1CCCCC1)C1CCCCC1)Nc1ccc(S(=O)(=O)c2ccc(NC(=O)CCCN(C3CCCCC3)C3CCCCC3)cc2)cc1 |  |  | strand transfer |  | >100 µM |
| O=C(NCc1ccc(F)cc1)c1nc(N2CCCCS2(=O)=O)c2cccnc2c1O |  |  | strand transfer |  | 0.015 µM |
| CCOC(=O)C(C(=O)OCC)c1cn(S(=O)(=O)c2ccc(C)cc2)c2ccc(NC(=O)c3cc(F)c(F)c(F)c3)cc12 |  |  | strand transfer / fluorescence |  | 20.1 µM |
| CN1C/C(=C\c2cc(O)c(O)c(O)c2)C(=O)/C(=C/c2cc(O)c(O)c(O)c2)C1 |  |  | strand transfer |  | 0.6 µM |
| COc1cc(/C=C/c2ccc3ccc(C(=O)O)c(O)c3n2)cc(O)c1O |  |  | binding / fluorescence |  | 2.2 µM |
| O=C1/C(=C/c2ccc(O)c(O)c2)CC(C(=O)O)C/C1=C\c1ccc(O)c(O)c1 |  |  | disintegration |  | 0.1 µM |
| COc1cc(O)c2c(c1O)C(=O)c1cc(C)ncc1C2=O |  |  | 3′ processing |  | 42 µM |
| N#C/C(=C\c1cc(O)c(O)c(O)c1)C(=O)NCCCCNC(=O)/C(C#N)=C/c1cc(O)c(O)c(O)c1 |  |  | 3′ processing / substrate cleavage |  | 0.66 µM |
| Nc1ncnc2c1ncn2[C@@H]1CO[C@H](COP(=O)(O)O)[C@H]1OP(=O)(O)OC[C@H]1O[C@@H](n2cnc3c(N)ncnc32)C[C@@H]1O |  |  | strand transfer |  | >1000 µM |
| C[C@H](Cn1cnc2c(=O)[nH]c(N)nc21)OCP(=O)(O)O |  |  | 3′ processing |  | 300 µM |
| CC1CC2=Cc3c(O)c(O)cc(O)c3C(=O)C2=CO1 |  |  | 3′ processing |  | 19 µM |
| O=C1/C(=C/c2cc(O)c(O)c(O)c2)COC/C1=C\c1cc(O)c(O)c(O)c1 |  |  | disintegration |  | 10 µM |
| Nc1ccn(C2C[C@H](O)[C@@H](COP(=O)(O)O[C@H]3[C@H](n4cnc5c(N)ncnc54)CO[C@@H]3COP(=O)(O)O)O2)c(=O)n1 |  |  | 3′ processing |  | 19 µM |
| CC1CCN(C(=O)c2cc(Nc3ccnc4cc(Cl)ccc34)ccc2O)CC1 |  |  | 3′ processing |  | >250 µM |
| N#C/C(=C\c1ccc(O)c(O)c1)C(=O)NCCc1ccc(O)c(O)c1 |  |  | 3′ processing / substrate cleavage |  | 5–10 µM |
| Cc1cn([C@@H]2CO[C@H](COP(=O)(O)O[C@H]3C[C@H](n4ccc(N)nc4=O)O[C@@H]3COP(=O)(O)O)[C@H]2O)c(=O)[nH]c1=O |  |  | 3′ processing |  | 405 µM |
| CCOC(=O)C(C(=O)OCC)c1cn(S(=O)(=O)c2ccc(C)cc2)c2ccc(NC(=O)c3cccc(C)c3O)cc12 |  | G140S | strand transfer / fluorescence |  | 22.9 µM |
| CCC(CCl)NC(=O)Nc1ccc(S(=O)(=O)c2ccc([N+](=O)[O-])cc2)cc1 |  |  | 3′ processing |  | >100 µM |
| CN1C(=O)C(c2cc(Cl)c(O)c(Cl)c2)NC(=O)[C@@H]2NC(=O)C(c3cc(Cl)c(O)c(Cl)c3)NC(=O)[C@H](NC(=O)C(=O)c3cc(Cl)c(O)c(Cl)c3)Cc3c[nH]c4cc(ccc34)-c3cc2cc(c3O)Oc2ccc(cc2)CC1C(=O)NC(C(=O)O)c1ccc(O)cc1 |  |  | absorbance |  | 0.2 µM |
| O=S(=O)(O)c1cc(O)c(N=NC2S(=O)(=O)OCCOS2(=O)=O)c2ccccc12 |  |  | 3′ processing | Mg2+ | >200 µM |
| CCCCCCc1cc2c(O)c(C(c3ccccc3)c3c(O)c4cc(CCCCCC)c(O)cc4oc3=O)c(=O)oc2cc1O |  |  | strand transfer |  | 12 µM |
| O=C(/C=C/c1ccc(O)c(O)c1)Oc1c(-c2ccc(Cl)cc2)oc2ccccc2c1=O |  |  | 3′ processing |  | 75 µM |
| CN1C[C@H](O)C(C)(C)Cn2c(c3c(c(O)c2=O)C(=O)N(Cc2ccc(F)c(Cl)c2)CC3)C1=O |  |  | strand transfer |  | 0.014 µM |
| Nc1nc2c(ncn2CCOCP(=O)(O)O)c(=O)[nH]1 |  |  | 3′ processing |  | 640 µM |
| O=[N+]([O-])c1cccc([N+](=O)[O-])c1S(=O)(=O)c1ccccc1 |  |  | strand transfer |  | >100 µM |
| N#CC(C#N)=Cc1cc(O)c(O)c(O)c1 |  |  | strand transfer |  | 5–10 µM |
| C=C(Cn1cnc2c(=O)[nH]c(N)nc21)OCP(=O)(O)OP(=O)(O)OP(=O)(O)O |  |  | 3′ processing |  | 63 µM |
| O=C1c2ccccc2SCC2CSC(c3ccccc3)N12 | RF |  | 3′ processing |  | 241.5 µM |
| CC1(C)OC(=O)/C(=C/C(=O)c2c[nH]c3ccc(Br)cc23)O1 |  | G140S | strand transfer / fluorescence |  | 10.6 µM |
| O=[N+]([O-])c1cc(C(F)(F)F)ccc1S(=O)(=O)c1ccccc1 |  |  | 3′ processing |  | >100 µM |
| CC1(C)OC(=O)/C(=C/C(=O)c2cn(Cc3cc(F)ccc3F)c3ccc(F)cc23)O1 |  | G140S | strand transfer / fluorescence |  | 12.8 µM |
| C[C@H](CCC(=O)Nc1ccc(S(=O)(=O)c2ccc(NC(=O)CC[C@@H](C)[C@H]3CC[C@H]4[C@@H]5CC[C@H]6C[C@@H](O)CC[C@]6(C)[C@H]5CC(O)[C@]34C)cc2)cc1)[C@H]1CC[C@H]2[C@@H]3CC[C@H]4C[C@@H](O)CC[C@]4(C)[C@H]3CC(O)[C@]12C |  |  | 3′ processing |  | >100 µM |
| Oc1c2c(cc3c1-c1c4c(cc5c1[C@H](C3)NCC5)OCO4)OCO2 |  |  |  |  | >100 µM |
| O=C1Sc2ccccc2C(=O)N2CCSC12 | RF |  | strand transfer |  | 140 µM |
| O=c1c2[nH]cc[nH]c2c(=O)c2c(=O)n(Cc3cc(Cl)cc(Cl)c3)c(=O)c12 |  |  | strand transfer |  | 0.427 µM |
| COc1c(O)ccc2c1-c1c3c(cc4c1[C@H](C2)N(C)CC4)OCO3 |  |  |  |  | >100 µM |
| N#Cc1cc2c(cc1C#N)/C(=N/c1cccc(N)n1)N=C2Nc1cccc(N)n1 |  |  | 3′ processing |  | 148 µM |
| CCN1C/C(=C\c2ccc(O)c(O)c2)C(=O)/C(=C/c2ccc(O)c(O)c2)C1 |  |  | 3′ processing |  | 0.5 µM |
| O=C(O)c1ccc(NCc2cc(O)ccc2O)cc1 |  |  | 3′ processing / substrate cleavage |  | 10–100 µM |
| CC(=O)/C(N=Nc1ccc(S(=O)(=O)c2ccc(N=N/C(C(C)=O)=C(/C)O)cc2)cc1)=C(\C)O |  |  | strand transfer |  | 90 µM |
| O=C(/C=C(\O)c1cc(C(=O)O)n(Cc2ccccc2)c1)c1ncn[nH]1 |  |  | strand transfer |  | 1 µg/mL |
| O=C(/C=C/c1ccc(O)c(O)c1)NCCOC(=O)/C=C/c1ccc(O)c(O)c1 |  |  | 3′ processing |  | 27.5 µM |
| COc1cc([C@@H]2c3cc4c(cc3[C@@H](O[C@@H]3O[C@@H]5CO[C@@H](C)O[C@H]5[C@H](O)[C@H]3O)[C@H]3COC(=O)[C@H]23)OCO4)cc(OC)c1O |  |  | 3′ processing |  | >100 µM |
| Cc1cn([C@H]2C[C@H](O)[C@@H](COP(=O)(O)O[C@H]3[C@H](n4cnc5c(N)ncnc54)CO[C@@H]3COP(=O)(O)O)O2)c(=O)nc1N |  |  | strand transfer |  | 50 µM |
| CC(=O)Oc1c(-c2ccc(Cl)c(Cl)c2)oc2ccccc2c1=O |  |  | 3′ processing |  | >100 µM |
| Nc1nc2c(ncn2CCOCP(=O)(O)OP(=O)(O)OP(=O)(O)O)c(=O)[nH]1 |  |  | 3′ processing |  | 82 µM |
| N#C/C(=C\c1ccc(O)c(O)c1)C(=O)NCCCCCCNC(=O)/C(C#N)=C/c1ccc(O)c(O)c1 |  |  | strand transfer |  | 1.1 µM |
| CCOC(=O)C(C(=O)OCC)c1cn(Cc2cc(F)ccc2F)c2ccc(F)cc12 |  |  | strand transfer / fluorescence |  | 19.8 µM |
| O=C1NC(=S)NC(=O)C1=Cc1cc(O)c(O)c(O)c1 |  |  | strand transfer |  | 1.6 µM |
| O=[N+]([O-])c1cc(S(=O)(=O)c2ccc(F)c([N+](=O)[O-])c2)ccc1F |  |  | 3′ processing |  | 51 µM |
| N#C/C(=C\c1cc(O)c(O)c(O)c1)C(=O)NCCCCCNC(=O)/C(C#N)=C/c1cc(O)c(O)c(O)c1 |  |  | 3′ processing / substrate cleavage |  | 0.45 µM |
| O=C1/C(=C/c2cc(O)c(O)c(O)c2)CN(Cc2ccccc2)C/C1=C\c1cc(O)c(O)c(O)c1 |  |  | strand transfer |  | 1.1 µM |
| COc1cc2c(cc1OC)C13CC(=O)N(C(C)=O)N1CCCN3C2=O |  |  | 3′ processing |  | >250 µM |
| C[C@@H]1CCO[C@H]2Cn3cc(C(=O)NCc4ccc(F)cc4F)c(=O)c(O)c3CN12 |  |  |  |  | 0.033 µM |
| Nc1ncnc2c1ncn2[C@H]1CC[C@@H](COP(=O)(O)OP(=O)(O)OP(=O)(O)O)O1 |  |  | 3′ processing |  | 150 µM |
| Cc1ccnc(NS(=O)(=O)c2ccc(N=Nc3cc4ccccc4c(C(=O)O)c3O)cc2)n1 |  |  | 3′ processing | Mg2+ | 86 µM |
| Nc1ccn([C@@H]2CO[C@H](COP(=O)(O)O[C@H]3[C@H](n4cnc5c(N)ncnc54)CO[C@@H]3COP(=O)(O)O)[C@H]2O)c(=O)n1 |  |  | strand transfer |  | >1000 µM |
| CCOC(=O)C1C/C(=C\c2ccc(O)c(O)c2)C(=O)/C(=C/c2ccc(O)c(O)c2)C1 |  |  | 3′ processing |  | 0.2 µM |
| O=C(O)c1cc2ccccc2c(N=Nc2ccc(S(=O)(=O)Nc3nccs3)cc2)c1O |  |  | 3′ processing | Mn2+ | 19 µM |
| C=C1[C@H]2C[C@H]2[C@]2(C)Cc3occ(C)c3[C@H](OC(C)=O)[C@@H]12 |  |  |  |  | >100 µM |
| COc1cc(C(=O)Oc2c(-c3ccc(Cl)cc3)oc3ccccc3c2=O)cc(OC)c1OC(C)=O |  |  | 3′ processing |  | >100 µM |
| Nc1c(Br)cc2c([nH]c(=O)c3cc(Br)ccc32)c1Br |  |  | 3′ processing | Mg2+ | 220 µM |
| COc1cc(/C=C/C(=O)Oc2c(-c3ccc(Cl)cc3)oc3ccccc3c2=O)ccc1O |  |  | 3′ processing |  | >100 µM |
| CCOC(=O)C(C(=O)OCC)c1cn(S(=O)(=O)c2ccc(C)cc2)c2ccc(NC(=O)c3ccc(OC)cc3)cc12 |  | G140S | strand transfer / fluorescence |  | >25 µM |
| O=C1/C(=C/c2ccc(Cl)c(Cl)c2)COC/C1=C\c1ccc(Cl)c(Cl)c1 |  |  | strand transfer |  | 9 µM |
| COc1cc(C(=O)Oc2c(-c3ccc(Cl)cc3)oc3ccccc3c2=O)ccc1OC(C)=O |  |  | 3′ processing |  | >100 µM |